Assay [1] concerns the target T1, recombinant domain RBD of the SARS-CoV-2 subunit S1 (res Arg319-Phe541) (SARS-CoV-2, UniProt P0DTC2 319-541). As to the kind of experiment: MST. Particulars: both partners purified.
In assay [2] the target is T1, recombinant domain RBD of the …. The experiment in a line: MST. To be noted: both partners purified. The source holds these as a separate data set.

B1: MYEEFKAED peptide (peptide)
peptide: MYEEFKAED
notes: also called negative control peptide
As to B1, the dissociation constant Kd in assay [1] is 550000 ± 200000 nM.

B2: pep1e (peptide)
peptide: EDGFYQ
notes: also called 37-EDGFYQ-42
As to B2, the dissociation constant Kd in assay [2] turned out to be 1900 nM.

B3: pep1c (peptide)
peptide: DKGNHEAED
notes: also called 30-DKGNHEAED-38
As to B3, in assay [2], the Kd amounted to 280 nM.

As usually defined, the Kd is a measure of binding affinity in units of concentration.

For the origin of these results see paper PMC8070189, “Native Structure-Based Peptides as Potential Protein–Protein Interaction Inhibitors of SARS-CoV-2 Spike Protein and Human ACE2 Receptor” (Molecules, 2021).
